# HIV-1 5' UTR: effect of mutations on RNA dimer formation

Values reported by Ye et al. 2022 (doi:10.1038/s41594-022-00746-2).

The 5' region of HIV-1 NL4-3 RNA (positions 1-437):
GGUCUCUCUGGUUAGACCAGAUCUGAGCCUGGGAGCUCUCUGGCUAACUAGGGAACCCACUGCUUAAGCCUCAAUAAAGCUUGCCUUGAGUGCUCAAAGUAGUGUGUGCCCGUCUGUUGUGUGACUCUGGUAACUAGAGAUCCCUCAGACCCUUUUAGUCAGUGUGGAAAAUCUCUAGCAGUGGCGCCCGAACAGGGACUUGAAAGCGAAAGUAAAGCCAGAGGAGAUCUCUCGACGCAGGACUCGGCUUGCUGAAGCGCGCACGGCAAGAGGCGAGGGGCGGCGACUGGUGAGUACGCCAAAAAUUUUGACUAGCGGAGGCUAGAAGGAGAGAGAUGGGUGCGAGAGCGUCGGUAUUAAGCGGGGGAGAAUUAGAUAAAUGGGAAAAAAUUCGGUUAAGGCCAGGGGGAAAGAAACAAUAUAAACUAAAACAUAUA

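Randomly mutated transcripts starting with one, two or three G (1G, 2G, 3G), capped or uncapped, were folded for 30 min at 37 °C. Monomer and dimer bands were cut from native gels after folding in high salt (300 mM KCl, 5 mM MgCl2) or low salt (40 mM KCl, 0.1 mM MgCl2). Mutation frequencies in the two bands give Kdimer.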

Values are log2 Kdimer, the median over the changes at each position: higher means that changes there hinder dimer formation, below 0 that they favour it. One numbering serves 1G, 2G and 3G. A position is written with its base.

With G62 (domain PolyA) the assay gave 1G capped low-salt 0.20; 3G uncapped low-salt 0.11. C63 (domain PolyA) read 1G capped low-salt 0.21; 3G uncapped low-salt -0.07. For U64 (domain PolyA) the result was 1G capped low-salt 0.16; 3G uncapped low-salt -0.12. U65 (domain PolyA) gave 1G capped low-salt 0.16; 3G uncapped low-salt 0.15. A66 (domain PolyA) read 1G capped low-salt -0.08; 3G uncapped low-salt -0.06.

With A67 (domain PolyA) the assay gave 1G capped low-salt 0.00; 3G uncapped low-salt -0.10. G68 (domain PolyA) read 1G capped low-salt 0.22; 3G uncapped low-salt -0.18. With C69 (domain PolyA) the assay gave 1G capped low-salt -0.23; 3G uncapped low-salt -0.11. C70 (domain PolyA) read 1G capped low-salt 0.10; 3G uncapped low-salt 0.22. U71 (domain PolyA) read 1G capped low-salt 0.22; 3G uncapped low-salt -0.02.

C72 (domain PolyA) read 1G capped low-salt -0.16; 3G uncapped low-salt 0.04. A73 (domain PolyA) gave 1G capped low-salt 0.13; 3G uncapped low-salt -0.10. A74 (domain PolyA) gave 1G capped low-salt 0.08; 3G uncapped low-salt 0.14. U75 (domain PolyA) gave 1G capped low-salt -0.09; 3G uncapped low-salt 0.09. With A76 (domain PolyA) the assay gave 1G capped low-salt 0.04; 3G uncapped low-salt -0.09.

For A77 (domain PolyA) the result was 1G capped low-salt 0.11; 3G uncapped low-salt 0.10. With A78 (domain PolyA) the assay gave 1G capped low-salt 0.05; 3G uncapped low-salt -0.17. With G79 (domain PolyA) the assay gave 1G capped low-salt 0.21; 3G uncapped low-salt 0.64. With C80 (domain PolyA) the assay gave 1G capped low-salt -0.02; 3G uncapped low-salt 0.42. U81 (domain PolyA) gave 1G capped low-salt 0.20; 3G uncapped low-salt 0.39.

With U82 (domain PolyA) the assay gave 1G capped low-salt 0.02; 3G uncapped low-salt 0.20. For G83 (domain PolyA) the result was 1G capped low-salt -0.19; 3G uncapped low-salt -0.20. For C84 (domain PolyA) the result was 1G capped low-salt -0.15; 3G uncapped low-salt -0.59. C85 (domain PolyA) read 1G capped low-salt -0.20; 3G uncapped low-salt -0.48. With U86 (domain PolyA) the assay gave 1G capped low-salt 0.23; 3G uncapped low-salt -0.10.

For U87 (domain PolyA) the result was 1G capped low-salt 0.34; 3G uncapped low-salt 0.00. G88 (domain PolyA) gave 1G capped low-salt -0.08; 3G uncapped low-salt -0.24. A89 (domain PolyA) gave 1G capped low-salt 0.31; 3G uncapped low-salt 0.35. For G90 (domain PolyA) the result was 1G capped low-salt -0.44; 3G uncapped low-salt -0.53. U91 (domain PolyA) gave 1G capped low-salt -0.13; 3G uncapped low-salt -0.25.

With G92 (domain PolyA) the assay gave 1G capped low-salt 0.39; 3G uncapped low-salt 0.46. For C93 (domain PolyA) the result was 1G capped low-salt -0.18; 3G uncapped low-salt -0.26. For U94 (domain PolyA) the result was 1G capped low-salt 0.33; 3G uncapped low-salt 0.50. For C95 (domain PolyA) the result was 1G capped low-salt 0.05; 3G uncapped low-salt 0.64. For A96 (domain PolyA) the result was 1G capped low-salt 0.15; 3G uncapped low-salt -0.03.

With A97 (domain PolyA) the assay gave 1G capped low-salt 0.23; 3G uncapped low-salt 0.07. For A98 (domain PolyA) the result was 1G capped low-salt 0.16; 3G uncapped low-salt -0.23. With G99 (domain PolyA) the assay gave 1G capped low-salt 0.16; 3G uncapped low-salt -0.23. U100 (domain PolyA) read 1G capped low-salt 0.10; 3G uncapped low-salt 0.28. A101 (domain PolyA) read 1G capped low-salt 0.43; 3G uncapped low-salt 0.20.

With G102 (domain PolyA) the assay gave 1G capped low-salt -0.10; 3G uncapped low-salt -0.26. U103 (domain PolyA) gave 1G capped low-salt 0.21; 3G uncapped low-salt 0.14.

Extract of 3 entries:

| position | domain | 1G capped low-salt | 3G uncapped low-salt |
|---|---|---|---|
| G99 | PolyA | 0.16 | -0.23 |
| C85 | PolyA | -0.20 | -0.48 |
| C84 | PolyA | -0.15 | -0.59 |